Pooled drug test results. Numbers come from NIAID ChemDB, via PubChem.

All rows: growth or infection tests; species: HIV-1; read by: p24; endpoint: EC50

a–b is a range or a potency band. ECn is the concentration giving n% inhibition of infection, replication or growth. Conditions beyond the fields shown may differ between rows. An empty or dashed field is not shown.

compound | conditions | strain | mutations | cell line | value
NS(=O)(=O)c1ccc(NC(=O)CSc2nnnn2-c2cccc(Cl)c2Cl)c(Cl)c1 | 10% FBS | - | - | MT-4 | <0.062 µM
CCN1c2ncc(CCOc3ccc(CC(=O)O)c4ccccc34)cc2C(=O)N(C)c2ccc(F)nc21 | - | - | RT-K103N Y181C | C8166 | <0.1 µM
Cc1cn([C@@H]2O[C@H](CO[Si](C)(C)C(C)(C)C)C3(OS(=O)(=O)C=C3N)[C@H]2O[Si](C)(C)C(C)(C)C)c(=O)n(C)c1=O | - | IIIB | - | PBL | 0.046 µM
CC(C)Oc1ccc(Cc2ccccc2)cc1C(=O)CC(=O)C(=O)O | - | IIIB | - | MT-4 | <0.1 µM
Cc1cn([C@H]2C[C@H](N=[N+]=[N-])[C@@H](CO)O2)c(=O)[nH]c1=O | - | IIIB | - | PBMC | <0.1 µM
CCN1c2ncc(CCOc3ccc(C(=O)O)c4ccccc34)cc2C(=O)N(C)c2ccc(Cl)nc21 | - | - | RT-K103N Y181C | C8166 | <0.1 µM
COc1ccc(CN[C@@H](C(=O)N[C@H](C(=O)NCc2nc3ccccc3[nH]2)C(C)C)[C@H](O)[C@H](Cc2ccccc2)NC(=O)[C@@H](NC(=O)OCc2ccccc2)C(C)(C)C)cc1 | - | BaL | - | Monocytes + Monocyte | 0.0076 µM
Cc1cn([C@H]2C[C@H](N=[N+]=[N-])[C@@H](CO)O2)c(=O)[nH]c1=O | - | RT-M184V XM-M184V | RT-M184V | PBMC | <0.02 µM
COc1cc(C[C@H](C)[C@H](C)Cc2ccc(O)c(O)c2)ccc1O | - | WM | - | PBMC | 2 µg/mL
CCN1c2ncc(CCOc3ccc(C(=O)O)c4ccccc34)cc2C(=O)N(C)c2cccnc21 | - | WT | - | C8166 | <0.1 µM
COc1c(C)c2c(c(O)c1C/C=C(\C)CCC(=O)O)C(=O)OC2 | - | MDR (RT D67N K70R T215Y K219Q) RTMCY | RT-D67N K70R T215Y K219Q | PBMC | 0.31 µM
Cc1cn([C@H]2C[C@H](N=[N+]=[N-])[C@@H](CO)O2)c(=O)[nH]c1=O | - | NL4-3 WT | - | PBMC | 0.001 µM
Nc1ccn([C@@H]2O[C@H](CO)C[C@@H]2F)c(=O)n1 | - | - | - | CEM | 4 µM
O=c1cc(-c2ccc(O)cc2)oc2cc(O)cc(O)c12 | - | IIIB | - | H9 | 9 µg/mL
Cc1cc(C)c(-n2nnnc2SCC(=O)Nc2ccc(C(N)=O)cc2C)c(C)c1 | 50% human serum | - | - | MT-4 | <0.062 µM
C=CCn1c(=O)c(C)cn([C@@H]2O[C@H](CO[Si](C)(C)C(C)(C)C)C3(OS(=O)(=O)C=C3N)[C@H]2O[Si](C)(C)C(C)(C)C)c1=O | - | BaL | - | Monocytes/macrophages | 0.524 µM
O=C(NCc1ccc(F)cc1)c1nc(N2CCCCS2(=O)=O)c2cccnc2c1O | - | - | - | - | 0.008 µM
Cc1c(O)cccc1C(=O)N[C@@H](CSc1ccccc1)[C@H](O)CN1C[C@H]2CCCC[C@H]2C[C@H]1C(=O)NC(C)(C)C | - | ERS104PRE(PR-L63P) Clinical isolate | PR-L63P | PBMC | 0.023 µM
CCN1c2ncc(CCOc3ccc(CCC(=O)NN)c4ccccc34)cc2C(=O)N(C)c2cccnc21 | - | WT | - | C8166 | <0.1 µM
CC(C)=CCC/C(C)=C/CC/C(C)=C/CC/C=C(\C)CC/C=C(\C)CCC=C(C)C | - | IIIB | - | H9 | 0.744 µg/mL
O=C1N(Cc2ccc(CO)cc2)[C@H](Cc2ccccc2)[C@H](O)[C@@H](O)[C@@H](Cc2ccccc2)N1Cc1ccc(CO)cc1 | - | Clinical isolate K | - | PBMC | 0.05 µM
O=Nc1c(-c2c(O)[nH]c3ccccc23)[nH]c2ccccc12 | - | IIIB | - | PM1 | ~0.5 µM
Cc1cn([C@H]2C[C@H](N=[N+]=[N-])[C@@H](COP(=O)(O)OP(=O)(O)OP(=O)(O)O)O2)c(=O)[nH]c1=O | - | WEJO Clinical isolates | - | PBMC | 0.0073 µM
Cc1cn([C@H]2C=C[C@@H](CO)O2)c(=O)[nH]c1=O | - | Recombinant | RT-V75I F77L F116Y Q151M | PBMC | 0.67 µM
CCN1c2ncc(CCOc3cccc4c3CCCN4CC(=O)O)cc2C(=O)N(C)c2cccnc21 | - | WT | - | C8166 | 0.1–1 µM
COc1ccc(S(=O)(=O)N(CC(C)C)C[C@@H](O)[C@H](Cc2ccccc2)NC(=O)O[C@H]2CO[C@H]3OCC[C@H]32)cc1 | - | Clinical isolate | PR-L10I I15V E35D N37E K45R I54V L63P A71V V82T L90M I93L C95F | PBMC | 0.001 µM
CC(C)(C)[Si](C)(C)OC[C@H]1O[C@@H](n2ccc(=O)[nH]c2=O)[C@H](O[Si](C)(C)C(C)(C)C)C12OS(=O)(=O)C=C2N | - | IIIB | - | PBL | 0.156 µM
CCCCCCCCCCCCCCCCCCOC[C@H](CO)OC | - | LAI | - | MT-2 | 63 µM
O=C(O)c1cc(O)cc(O)c1N=Nc1ccc(/C=C/c2ccc(N=Nc3c(O)cc(O)cc3C(=O)O)cc2S(=O)(=O)O)c(S(=O)(=O)O)c1 | - | BaL | - | Macrophage | 0.3 µg/mL
Cc1ccc(-c2ccc3c(c2)C=C(C(=O)Nc2ccc(C[N+](C)(C)C4CCOCC4)cc2)CCC3)cc1 | - | MZ | - | PBMC | >20 µM
Nc1ccn([C@@H]2CO[C@H](CO)S2)c(=O)n1 | - | RF | RT-M184V | C8166 | >100 µM
O=c1[nH]cnc2c1ncn2[C@H]1CC[C@@H](CO)O1 | - | NL-XM WT | - | MT-4 | <6.9 µM
Nc1nc(NC2CC2)c2ncn([C@H]3C=C[C@@H](CO)C3)c2n1 | - | WEJO Clinical isolates | - | PBMC | 0.06 µM
CC(C)CN(C[C@@H](O)[C@H](Cc1ccccc1)NC(=O)O[C@H]1CCOC1)S(=O)(=O)c1ccc(N)cc1 | - | Ba-L Laboratory isolate | - | PBMC | 0.023 µM
NS(=O)(=O)c1ccc(NC(=O)CSc2nnnn2-c2cc(Cl)ccc2Cl)c(Cl)c1 | 10% FBS | - | - | MT-4 | <0.016 µM
CC(C)CN(C[C@@H](O)[C@H](Cc1ccccc1)NC(=O)O[C@H]1CCOC1)S(=O)(=O)c1ccc(N)cc1 | - | Clinical isolate | PR-L10L/I K20R M36I I54V A71I/V V82A I84I/V L90M | PBMC | 0.111 µM
C#C[C@]1(CO)O[C@@H](n2cnc3c(N)ncnc32)C[C@@H]1O | - | ERS104pre | - | PBMC | 0.013 µM
CC(C)(C)NC(=O)[C@@H]1CN(Cc2cccnc2)CCN1C[C@@H](O)C[C@@H](Cc1ccccc1)C(=O)N[C@H]1c2ccccc2C[C@H]1O | - | ERS104PRE(PR-L63P) Clinical isolate | PR-L63P | PBMC | 0.013 µM
Nc1ccn([C@@H]2CS[C@H](CO)O2)c(=O)n1 | - | 4755-5 NRTI resistant recombinant | RT-M41L E44D D67N T69D Y118I M184V L210W T215Y | PBMC | >10 µM
Nc1nc(NC2CC2)c2ncn([C@H]3C=C[C@@H](CO)C3)c2n1 | - | HXB2 | - | PBMC | 1.41 µM
COC(=O)[C@H](C)NP(=O)(OC[C@@H]1C=C[C@H](n2cc(C)c(=O)[nH]c2=O)O1)Oc1ccc(Br)cc1 | - | X165-8 NRTI resistant | RT-D67N T69N K70R K103N Y181C T215F K219E | PBMC | 0.013 µM
CCCCCCCCCCCCCCCCCCOC[C@@H](COP(=O)(O)C(=O)O)OCCCCCCCC | - | LAI | - | MT-2 | 5.61 µM
Nc1nc(=O)n([C@H]2C[C@H](O)[C@@H](CO)O2)cc1COCC(F)(F)F | - | - | - | CEM | >100 µg/mL
COc1c2ccoc2cc2oc(=O)ccc12 | - | IIIB | - | H9 | 0.669 µg/mL
Nc1nc2c(ncn2[C@H]2CO[C@@H](CO)O2)c(=O)[nH]1 | - | LAI | - | PBMC | 0.25 µM
Nc1ncnc2c1ncn2CCOCP(=O)(O)O | - | HXB2D (RT-M184V) | RT-M184V | CBMC | 0.3 ± 0.05 µM
O=c1[nH]c(=O)n([C@H]2C[C@H](O)[C@@H](CO)O2)cc1COCC(F)(F)F | - | - | - | CEM | >100 µg/mL
CCN1c2ncc(CCOc3ccc(C(=O)O)c4ccccc34)cc2C(=O)Nc2c(C)cc(Cl)nc21 | - | - | RT-K103N Y181C | C8166 | <0.1 µM
Cc1cc(C)c(-n2nnnc2SCC(=O)Nc2ccccc2[N+](=O)[O-])c(C)c1 | 50% human serum | - | - | MT-4 | <0.09 µM
C=C(CC(=O)O)c1ccc(OCCc2cnc3c(c2)C(=O)N(C)c2cccnc2N3CC)c2ccccc12 | - | WT | - | C8166 | <0.1 µM
COc1c2ccoc2nc2c(OC)c(O)ccc12 | - | IIIB | - | H9 | 0.634 µg/mL
O=c1cc(-c2ccc(O)cc2)oc2cc(O[C@@H]3O[C@H](CO)[C@@H](O)[C@H](O)[C@H]3O)cc(O)c12 | - | IIIB | - | H9 | 1.8 µg/mL
CCN1c2ncc(CCOc3ccc(C(=O)O)c4c3CCCC4)cc2C(=O)N(C)c2cccnc21 | - | WT | - | C8166 | <0.1 µM
CNC(=O)CCCCC=C(c1cc(OC)c(OC)c(C(=O)OC)c1)c1cc(OC)c(OC)c(C(=O)OC)c1 | - | - | - | CEM + CEM-SS | 2.26 µM
COC(=O)[C@H](Cc1c[nH]c2ccccc12)NP(=O)(O)OC[C@H]1O[C@@H](n2cnc3cnccc32)[C@H](O)[C@@H]1O | - | A012 POST-AZT | - | PBL | >10 µM
Cc1ccc(-n2nnnc2SCC(=O)Nc2ccccc2[N+](=O)[O-])c(Br)c1 | 50% human serum | - | - | MT-4 | <0.062 µM
CC(C)[C@H](NC(=O)c1ccccn1)C(=O)N[C@@H](Cc1ccccc1)[C@H](O)[C@H](O)[C@H](Cc1ccccc1)NC(=O)[C@@H](NC(=O)c1ccccn1)C(C)C | - | NL4-3 | - | MT-4 | 2 µM
CCCCCCCCCCCCCCCCCCOC[C@H](COP(=O)(O)C(=O)O)OC | - | LAI | - | MT-2 | 0.28 µM
Cc1ccccc1Cc1cccc(C(=O)CC(=O)C(=O)O)c1 | - | - | INTG-T66I M154I | - | 0.3 µM
Cc1cc(C)c(-n2nnnc2SCC(=O)Nc2ccc(S(N)(=O)=O)cc2Cl)c(C)c1 | 10% FBS | - | - | MT-4 | <0.016 µM
COC(=O)CCC/C=C(\c1ccc(OC)c(C(=O)OC)c1)c1cc(Cl)c(OC)c(C(=O)OC)c1 | - | - | - | CEM + CEM-SS | 0.08 µM
CCNc1cccnc1N1CCN(C(=O)c2cc3cc(OC)ccc3[nH]2)CC1 | - | BaL | - | Macrophage + Monocytes/macrophages | 0.72 µM
Cc1ccnc2c1NC(=O)c1cccnc1N2C1CC1 | - | HXB2 | RT-M41L L74V V106A T215Y | C8166 | 0.9 µM
Nc1ccn([C@@H]2O[C@H](CO)C=C2F)c(=O)n1 | - | - | - | CEM | 15–48 µM
COc1cc2c(cc1OC)N1CCc3cc4c(cc3[C@@H]1CC2)OCO4 | - | IIIB | - | H9 | <0.1 µg/mL
CC(C)Nc1cccnc1N1CCN(C(=O)c2cc3cc(NS(C)(=O)=O)ccc3[nH]2)CC1 | - | BaL | RT-P236L | PBMC | 7.3 µM
Nc1nccc2c1ncn2[C@@H]1O[C@H](CO)[C@@H](O)[C@H]1O | - | A012 POST-AZT | - | PBL | 0.165 µM

5 of the rows above, restated:

{"compound": "Cc1ccnc2c1NC(=O)c1cccnc1N2C1CC1", "strain": "HXB2", "mutations": "RT-M41L L74V V106A T215Y", "cell line": "C8166", "value": "0.9 µM"}
{"compound": "CC(C)Oc1ccc(Cc2ccccc2)cc1C(=O)CC(=O)C(=O)O", "strain": "IIIB", "cell line": "MT-4", "value": "<0.1 µM"}
{"compound": "O=C1N(Cc2ccc(CO)cc2)[C@H](Cc2ccccc2)[C@H](O)[C@@H](O)[C@@H](Cc2ccccc2)N1Cc1ccc(CO)cc1", "strain": "Clinical isolate K", "cell line": "PBMC", "value": "0.05 µM"}
{"compound": "Nc1ccn([C@@H]2O[C@H](CO)C[C@@H]2F)c(=O)n1", "cell line": "CEM", "value": "4 µM"}
{"compound": "Cc1cn([C@H]2C[C@H](N=[N+]=[N-])[C@@H](COP(=O)(O)OP(=O)(O)OP(=O)(O)O)O2)c(=O)[nH]c1=O", "strain": "WEJO Clinical isolates", "cell line": "PBMC", "value": "0.0073 µM"}